The exact form of at least one protein or probe is not confirmed.
Target: His6-CpxR (Escherichia coli (avian pathogenic, APEC40)) (UniProt P0AE88)
Test: EMSA
Details: shift at 1, 2 and 4 uM CpxR, 200 fM probe, unlabeled probe 2 pM as competition control, 5x binding buffer ([…], 30 min at room temperature, recombinant protein, residues 1-232, label: biotin (forward primer p-emrKY-biotin-f), probe letters rebuilt from the primers and the genome

The chains behind the UniProt entries cited, without tags or fusion partners. Where a name states a change or a piece, a line headed by the entry shows the natural chain unless it says otherwise.
UniProt P0AE88: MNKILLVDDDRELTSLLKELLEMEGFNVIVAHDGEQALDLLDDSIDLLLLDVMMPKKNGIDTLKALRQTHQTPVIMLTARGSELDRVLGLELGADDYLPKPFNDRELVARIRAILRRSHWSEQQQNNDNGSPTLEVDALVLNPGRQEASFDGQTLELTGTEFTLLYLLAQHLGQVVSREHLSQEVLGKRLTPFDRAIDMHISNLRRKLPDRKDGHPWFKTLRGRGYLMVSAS

TCTCCCTTCTCCCTGTAGTAATACAGACATAAGGCGTCATCTCATTTTCTCAATAAAAATAAGAAAATCTGAGCTTCCTTTAAGATAATTCGACAAGTATACCATATAAATAGTCGGCATAAATGAAATGTCAACAATAAAATCAGGGATTGTACCGATGATTTATAGTTTCAAGTTGGCACTATAAGTCTTCTTACTAATCCTACAGGCGTAAGAATTGTATTGCAAAAGCCACGGTTTAGTCCTCTGTTGTTTTTTTTGCACCTCATTTAAATTAGGCCTCCAACGTTCCTGGGATAATGTGCAACACATGCACTGTGTTTGATATGAAGAATGAATGCTCTTTTCATTCAATTCATAAATTTCATCTATGAGAAATGAGAGATAATA (double strand) [emrKY promoter]
binding result: binds
